{"source": "PubChem BioAssay AID1259414 – Drosophila RNAi Screening Center, 2018", "aim": "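Genome-wide screen for host control of endosymbiont load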 (primary screen)", "cell system": "Drosophila JW18 cells infected with Wolbachia", "reagent": "long dsRNA against Drosophila genes, 0.25 µg dsRNA per well of a 384-well plate", "timing": "5 days", "treatment": "cells persistently infected with Wolbachia before knock-down; no added drug", "measurement": "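Imaged fluorescence in situ signal for Wolbachia 23S rRNA per DAPI-counted host cell, given as a robust z-score within each plate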", "reading the numbers": "Wolbachia per cell robust z: higher = more Wolbachia per host cell than the plate typical", "rule for the call": "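Active if absolute robust z reaches 1.5 in two or more of three replicates, leaving out multi- or no-target dsRNAs, genes unexpressed in JW18 and A1 wells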", "note": "In all, the deposit lists about 24,000 reagents; below is an unselected part of those that have a named target and a result. Over the whole deposit, about 1,210 (5%) are marked active. 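Inactive calls also include excluded dsRNAs with several or no targets, genes unexpressed in JW18, and well A1, regardless of score.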 A number with no mark means an inactive call. Reagents against one gene are numbered here."}
{"Gene": "CG11034", "reagent no.": 1, "Wolbachia per cell robust z, rep 1": 1.14, "Wolbachia per cell robust z, rep 2": -0.32, "Wolbachia per cell robust z, rep 3": 0.133}
{"Gene": "CG11034", "reagent no.": 2, "Wolbachia per cell robust z, rep 1": 0.428, "Wolbachia per cell robust z, rep 2": 0.555, "Wolbachia per cell robust z, rep 3": 0.985}
{"Gene": "CG42822", "reagent no.": 1, "Wolbachia per cell robust z, rep 1": -0.737, "Wolbachia per cell robust z, rep 2": 0.516, "Wolbachia per cell robust z, rep 3": 0.694}
{"Gene": "grh (grainy head)", "reagent no.": 1, "Wolbachia per cell robust z, rep 1": 0.443, "Wolbachia per cell robust z, rep 2": 2.05, "Wolbachia per cell robust z, rep 3": -0.0731}
{"Gene": "grh (grainy head)", "reagent no.": 2, "Wolbachia per cell robust z, rep 1": -0.21, "Wolbachia per cell robust z, rep 2": -9.78, "Wolbachia per cell robust z, rep 3": -0.489}
{"Gene": "grh (grainy head)", "reagent no.": 3, "Wolbachia per cell robust z, rep 1": -0.422, "Wolbachia per cell robust z, rep 2": 0.562, "Wolbachia per cell robust z, rep 3": -0.507}
{"Gene": "grh (grainy head)", "reagent no.": 4, "Wolbachia per cell robust z, rep 1": 0.342, "Wolbachia per cell robust z, rep 2": 1.01, "Wolbachia per cell robust z, rep 3": -2.04}
{"Gene": "grh (grainy head)", "reagent no.": 5, "Wolbachia per cell robust z, rep 1": 0.0517, "Wolbachia per cell robust z, rep 2": 0.683, "Wolbachia per cell robust z, rep 3": 0.812}
{"Gene": "grh (grainy head)", "reagent no.": 6, "Wolbachia per cell robust z, rep 1": -3.97, "Wolbachia per cell robust z, rep 2": 0.136, "Wolbachia per cell robust z, rep 3": 0.0943}

In a second layout: 2 of the entries above
{"Gene":"grh (grainy head)","reagent no.":1,"Wolbachia per cell robust z, rep 1":0.443,"Wolbachia per cell robust z, rep 2":2.05,"Wolbachia per cell robust z, rep 3":-0.0731}
{"Gene":"grh (grainy head)","reagent no.":2,"Wolbachia per cell robust z, rep 1":-0.21,"Wolbachia per cell robust z, rep 2":-9.78,"Wolbachia per cell robust z, rep 3":-0.489}

Next records follow:
{"Gene": "Snx17 (Sorting nexin 17)", "reagent no.": 1, "Wolbachia per cell robust z, rep 1": -6.77, "Wolbachia per cell robust z, rep 2": 0.593, "Wolbachia per cell robust z, rep 3": 0.135}
{"Gene": "Snx17 (Sorting nexin 17)", "reagent no.": 2, "Wolbachia per cell robust z, rep 1": 1.22, "Wolbachia per cell robust z, rep 2": 1.53, "Wolbachia per cell robust z, rep 3": 1.23}
{"Gene": "Mdh2 (Malate dehydrogenase 2)", "reagent no.": 1, "Wolbachia per cell robust z, rep 1": -0.411, "Wolbachia per cell robust z, rep 2": -0.54, "Wolbachia per cell robust z, rep 3": -1.92}
{"Gene": "CG17186", "reagent no.": 1, "Wolbachia per cell robust z, rep 1": -0.483, "Wolbachia per cell robust z, rep 2": 0.932, "Wolbachia per cell robust z, rep 3": -6.16}
{"Gene": "CG17186", "reagent no.": 2, "Wolbachia per cell robust z, rep 1": -0.994, "Wolbachia per cell robust z, rep 2": -1.85, "Wolbachia per cell robust z, rep 3": 0.653}
{"Gene": "CG32487", "reagent no.": 1, "Wolbachia per cell robust z, rep 1": 0.462, "Wolbachia per cell robust z, rep 2": -0.802, "Wolbachia per cell robust z, rep 3": -0.262}
{"Gene": "CG32487", "reagent no.": 2, "Wolbachia per cell robust z, rep 1": -2.01, "Wolbachia per cell robust z, rep 2": -2.43, "Wolbachia per cell robust z, rep 3": -1.84}
